Only a part is listed here, and it is no random draw. Active and inactive are the calls of the source. Rule as the data show it: active = inhibition above about 30%; inactive = the rest.
assay: inhibition of GDH and TPI enzymes – biochemical, absorbance, full deck, artefact control for M. tuberculosis FBA inhibitor project, primary screen (AID 588335); details: GDH-TPI coupled enzyme counterscreen, NADH absorbance; at 4.8 µM; hits give high values;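 also: 0% = DMSO wells and 100% = wells lacking the enzyme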

Row | Compound | inhibition
1 | Nc1ccc([As](=O)(O)c2ccc(N)cc2)cc1 | inactive: 21%
2 | CCc1nc2c(n1)c1c(non1O)c1c2no[n+]1[O-] | inactive: 17.2%
3 | O=[N+]([O-])c1cc([N+](=O)[O-])c(CCNc2ccccc2)c([N+](=O)[O-])c1 | inactive: -0.32%
4 | Cc1ccc(NP(=O)(Oc2ccccc2)Oc2ccccc2)nc1 | inactive: -0.62%
5 | O=[N+]([O-])c1cccc2n[nH]nc12 | inactive: 13.3%
6 | CC(=O)N1C2C3N(C(C)=O)C1C1N(C(C)=O)C(C(N1C(C)=O)N3C(C)=O)N2C(C)=O | inactive: 3.22%
7 | COc1ccc(C2=NCC(CBr)S2)cc1 (centres undefined) | inactive: -4.42%
8 | O=C(NC(Sc1ccncn1)C(Cl)(Cl)Cl)c1ccccc1 (centres undefined) | inactive: -7.41%
9 | Oc1ccccc1CNc1ccccn1 | inactive: 9.43%
10 | Nc1cc(N)c2nonc2c1[N+](=O)[O-] | inactive: 11.6%
11 | CC(C)CC(=O)NC(Sc1ccc(Cl)cc1)C(Cl)(Cl)Cl (centres undefined) | inactive: 3.27%
12 | CN1CCCC(OC(=O)C(c2ccccc2)c2ccccc2)C1 (centres undefined) | inactive: 1.24%
13 | Clc1ccc(Cl)c(NC2=NCC(CBr)S2)c1 (centres undefined) | inactive: -6.09%
14 | Cc1ccc(OP(=O)(Nc2nccs2)Oc2ccc(C)cc2)cc1 | inactive: -3.45%
15 | COc1ccccc1OP(=O)(Nc1ccc(C)cn1)Oc1ccccc1OC | inactive: 3.77%
16 | Cc1ccc(N/C(=N/P(=O)(N2CCOCC2)N2CCOCC2)N2CCOCC2)cc1 | inactive: 6.01%
17 | CN(C(=O)Cc1ccc(Cl)c(Cl)c1)[C@H]1CCCC[C@H]1N1CCCC1 | inactive: -6.74%
18 | NC(=O)c1cc([N+](=O)[O-])cc([N+](=O)[O-])c1N | inactive: 9.9%
19 | Nc1cccc2ccc([As](=O)(O)O)cc12 | inactive: 1.9%
20 | CCN(N=Nc1nonc1N)c1nonc1N | inactive: 16.2%
21 | Cc1ccc(NP(=O)(Oc2ccccc2F)Oc2ccccc2F)nc1 | inactive: 0.8%
22 | CN(C(=O)Cc1ccc(Cl)c(Cl)c1)[C@H]1CCCC[C@@H]1N1CCCC1 | inactive: 10.1%
23 | Cc1cc(SC(NC(=O)c2ccc(F)cc2)C(Cl)(Cl)Cl)ncn1 (centres undefined) | inactive: -6.93%
24 | CCOP(=O)(Nc1ccccc1)OCC | inactive: -0.64%
25 | O=P(Nc1nc2ccc(Cl)cc2s1)(c1ccccc1)c1ccccc1 | inactive: -8.03%
26 | CN(C)P(=O)(N(C)C)n1c(Nc2ccccc2)nnc1-c1ccccc1 | inactive: 0.88%
27 | CCCC1OP(N)(=O)OCC1CC (centres undefined) | inactive: 7.02%
28 | CC(=O)Nc1ccc([As](=O)(O)O)cc1 | inactive: 5.26%
29 | O=C(O)c1ccccc1[As](=O)(O)O | inactive: 0.43%

Reference: PubChem BioAssay AID588335 (The Scripps Research Institute Molecular Screening Center, 2011)
